Results deposited as PubChem BioAssay AID1259414 (Drosophila RNAi Screening Center, 2018)

Assay: 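Genome-wide screen for host control of endosymbiont load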 (primary screen)
System: Drosophila JW18 cells infected with Wolbachia
Reagents: long dsRNA against Drosophila genes, 0.25 µg dsRNA per well of a 384-well plate
Duration: 5 days
Conditions: cells persistently infected with Wolbachia before knock-down; no added drug
Measurement: 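Automated imaging of bacterial rRNA staining divided by host cell count, reported as plate-normalised robust z-score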
Direction: Wolbachia per cell robust z: higher = more Wolbachia per host cell than the plate typical
Active means: 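Hit when robust z is 1.5 or more, or -1.5 or less, in at least two of three replicates; excludes dsRNAs with several or no targets, genes not expressed in JW18 and well A1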
In all, the deposit lists about 24,000 reagents; below is a random part of those that have a named target and a result. In the full data, about 1,210 (5%) got an active call. 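Inactive calls also include excluded dsRNAs with several or no targets, genes unexpressed in JW18, and well A1, regardless of score.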 Unmarked entries are inactive. A plus sign joins genes that one reagent is predicted to hit.

The opening 2 records, ahead of the listing:
| target gene | DRSC id | Wolbachia per cell robust z, rep 1 | Wolbachia per cell robust z, rep 2 | Wolbachia per cell robust z, rep 3 |
| --- | --- | --- | --- | --- |
| CG9067 | DRSC07328 | 0.173 | 0.688 | -0.724 |
| Ca-Ma2d | DRSC29730 | 0.878 | 0.271 | 0.981 |

The listing, repeating the preview:
| target gene | DRSC id | Wolbachia per cell robust z, rep 1 | Wolbachia per cell robust z, rep 2 | Wolbachia per cell robust z, rep 3 |
| --- | --- | --- | --- | --- |
| CG9067 | DRSC07328 | 0.173 | 0.688 | -0.724 |
| Ca-Ma2d | DRSC29730 | 0.878 | 0.271 | 0.981 |
| CNT1 + CG13742 | DRSC06413 | 0.435 | 0.554 | -2.27 |
| CNT1 + CG13742 | DRSC28676 | -1.46 | -0.526 | -0.531 |
| CG14323 | DRSC14802 | 0.435 | 0.54 | 0.273 |
| CG11617 | DRSC00321 | -1.11 | 0.704 | 0.94 |
| CG11617 | DRSC21786 | 0.0366 | -1.4 | -1.04 |
| CG11617 | DRSC28154 | -1.07 | 0.201 | -1.55 |
| Cds | DRSC10938 | -1.34 | 0.251 | -0.71 |
| SkpB | DRSC07683 | -0.168 | 0.0761 | 0.362 |
| SkpB | DRSC25160 | 0.768 | -0.454 | 0.498 |
| Trpgamma | DRSC03626 | -0.978 | -0.746 | -6.32 |
| CG14357 | DRSC14820 | -0.42 | -2.05 | 0.545 |
| CG14357 | DRSC28685 | -0.722 | -1.59 | -1.42 |
| Cpr100A | DRSC14465 | 0.198 | 0.204 | 1.54 |
| Cpr100A | DRSC28530 | 0.0902 | -0.285 | 0.485 |
| CG15221 | DRSC19659 | -0.258 | -3.67 | 0.0617 |
| bur | DRSC03163 | -2.02 | 0.739 | 0.689 |
| Non1 | DRSC05954 | 0.993 | 0.114 | 1.96 |
| CG34345 | DRSC02126 | 0.764 | 0.158 | -0.765 |
| CG34345 | DRSC37753 | -0.404 | 0.0536 | 3.48 |
| CG34026 | DRSC38799 | 0.43 | 0.938 | 0.179 |
| sll | DRSC16271 | -2.8 | 0.788 | 0.98 |
| sll | DRSC29864 | -1.18 | 1.02 | -2.01 |
| ChT | DRSC16296 | 2.6 | 0 | -2.44 |
| blow | DRSC07586 | -0.77 | -0.271 | -3.21 |
| blow | DRSC27716 | -0.0744 | 0.428 | 0.642 |
| lncRNA:CR34052 | DRSC37874 | 1.66 | 1.36 | 1.41 |
| BEAF-32 + asRNA:CR42254 | DRSC05503 | -0.287 | -1.24 | -1.9 |
| CG2267 | DRSC15435 | -3.21 | 0.202 | 0.0538 |
| CheA46a | DRSC38883 | -0.534 | 0.771 | -0.0393 |
| CR33283 | DRSC22918 | -2.85 | -0.108 | -1.04 |
| Bicra | DRSC14417 | -1.57 | -0.371 | 0.223 |
| Bicra | DRSC25127 | -0.48 | -0.235 | -1.88 |
| CG40486 | DRSC20619 | -0.547 | 1.52 | -1.84 |
| l(3)mbn | DRSC08793 | -0.788 | -0.493 | -2.46 |
| CG44325 | DRSC18039 | -0.514 | -4.75 | -0.943 |
| CG44325 | DRSC18423 | -1.85 | -1.01 | -0.343 |
| CG13679 | DRSC10037 | 0.0322 | -4.37 | 0.457 |
| CG13679 | DRSC22749 | 0.273 | 0.166 | 0.504 |
| CG34161 | DRSC38918 | -3.14 | -1.12 | 0.9 |
| Lectin-galC1 | DRSC03362 | 0.677 | 0.779 | 0.844 |
| CG18477 + CG31780 | DRSC01955 | 1.13 | -1.47 | -2.02 |
| CG18477 + CG31780 | DRSC26122 | -0.276 | -1.63 | -0.665 |
| SK | DRSC17387 | 1.34 | 0.264 | 0.711 |
| SK | DRSC17887 | 0.165 | 0.119 | 0.00196 |
| SK | DRSC17888 | 0.602 | 0.0145 | 0.272 |
| SK | DRSC18353 | -0.236 | 0.399 | 0.209 |
| SK | DRSC27622 | 0.639 | 0.492 | 0.211 |
| CG46025 | DRSC01000 | 1.06 | -2.84 | -0.424 |
| CG46025 | DRSC02396 | -0.00422 | 0.299 | -0.669 |
| CG46025 | DRSC03023 | 0.128 | 0.133 | -0.564 |
| CG46025 | DRSC29424 | 0.311 | 0.675 | -2.95 |
| Cyp6a16 | DRSC03307 | 0.0865 | 1.24 | 0.399 |
| Cyp4ac1 | DRSC03302 | -1.46 | -2 | 0.869 |
| smp-30 | DRSC17059 | -5.47 | 0.255 | 0.248 |
| smp-30 | DRSC26913 | -0.586 | -0.939 | -0.922 |
| tkv | DRSC03623 | 0.194 | -0.605 | 0.0532 |
| tkv | DRSC22606 | -1.24 | 0.149 | 0.531 |
| tkv | DRSC25957 | -1.15 | -1.37 | -1.1 |
| Apl | DRSC10350 | 1.27 | 0.495 | -0.431 |
| rdgB | DRSC20365 | 0.012 | 0.0796 | 0.429 |
| rdgB | DRSC27840 | -0.873 | -0.246 | 0.433 |
| CG2772 | DRSC00530 | 0.0166 | -0.388 | -0.329 |
| CG2772 | DRSC27114 | -0.437 | -6.77 | -1.1 |
| rho-4 | DRSC19761 | -0.128 | -0.171 | 0.648 |
| rho-4 | DRSC19762 | -0.0955 | 0.213 | -0.733 |
| lncRNA:CR43372 | DRSC15041 | -0.869 | 0.281 | 0.184 |
